For this series, the target named is T1, RhlR:mBTL (Pseudomonas aeruginosa) (UniProt P54292).
T1 sequence (looked up, limits assumed): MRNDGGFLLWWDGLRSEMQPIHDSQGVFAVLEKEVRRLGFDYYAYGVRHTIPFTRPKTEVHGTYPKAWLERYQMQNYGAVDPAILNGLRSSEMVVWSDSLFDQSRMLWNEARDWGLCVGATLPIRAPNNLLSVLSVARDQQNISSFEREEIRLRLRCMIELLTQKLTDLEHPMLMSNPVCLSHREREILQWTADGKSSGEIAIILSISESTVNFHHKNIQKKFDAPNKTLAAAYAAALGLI
Kind of series: EMSA. The settings on record: without PqsE, recombinant protein, protein details: untagged, probe letters rebuilt from the primers and the genome. A general note: In EMSA bound probe runs differently from free probe, usually more slowly.

For at least one entry, the source does not settle the construct or the ends of the probe. Tags and fusion partners may be left off the protein sequences shown.

One sequence from publication PMC8754118, “The PqsE-RhlR Interaction Regulates RhlR DNA Binding to Control Virulence Factor Production in Pseudomonas aeruginosa” (Microbiology Spectrum, 2022) can be followed below.

As to “AGGCCTGCGAAGTGTCCTATAAGGACCGTGGCGGCAAATACCAGGGCCAGCGCGGCGTGACCCTGCCAAAAGCCTGACGCCAGAGCGTTTCGACACCGGAAACCGGGCCTGGCGCCCGGTTTTTTCATGCCTTTTCCGCCAACCCCTCGCTGTTCCCCGCCGGCCGCTCTGGCACGCCTTATCGCGGGCGGGCAGGGGCTTATGCGCAGGCGACCGCCCGTCCTGTGAAATCTGGCAGTTACCGTTAGCTTTCGAATTGGCTAAAAAGTGTTCATCGGCTACGCGTGAACACGGACGCCAATCGTTTGCGCAGGCCGATCTGCAAGACCCACACAAGCCCCTCGCCTGAAGGGGTACGCATCCGCCGTGGCTGGTCCGCGCGGATGGCCGCTGAGTTACTTGTCTGCCGTTCGAACAATAAGAACGAACTCTACGTAATGCCGGGATACCCGTGGCAGCGATAGCTGTTTGCCTGTTCGAAAATTTTTGGGAGGTGTGAA (double strand) [rhlA promoter EMSA probe]”, the binding result is given as “binds”.
